Laboratory results from the supplement of paper PMC3578754.
Fold change is the IC50 on the isolate divided by the IC50 on a reference virus; 1 = unchanged, higher = more resistant. Changes are given against the subtype B consensus. No active / inactive call. The values were gathered from many studies (numbered anew) with different assays, which the source does not name. Most viruses are clinical isolates; some are laboratory strains or clones with known resistance changes. Isolates with mixed residues are left out; stretches that were not sequenced show no change. Round top values that many isolates share are read here as limits; other very high values and 0.1 may be limits too. The protease changes I3V and N37S, insertions and deletions cannot be read from the source.

Assays:
Experiment in all cases: fold change of IC50 against reference virus; higher = more resistant; Cell-culture drug susceptibility tests of virus bearing the protease of each isolate, gathered from many studies.
nelfinavir = compound: Cc1c(O)cccc1C(=O)N[C@@H](CSc1ccccc1)[C@H](O)CN1C[C@H]2CCCC[C@H]2C[C@H]1C(=O)NC(C)(C)C [nelfinavir]
saquinavir = compound: CC(C)(C)NC(=O)[C@@H]1C[C@@H]2CCCC[C@@H]2CN1C[C@@H](O)[C@H](Cc1ccccc1)NC(=O)[C@H](CC(N)=O)NC(=O)c1ccc2ccccc2n1 [saquinavir]
indinavir = compound: CC(C)(C)NC(=O)[C@@H]1CN(Cc2cccnc2)CCN1C[C@@H](O)C[C@@H](Cc1ccccc1)C(=O)N[C@H]1c2ccccc2C[C@H]1O [indinavir]

Test System	fold change of IC50 against reference virus (nelfinavir)	fold change of IC50 against reference virus (saquinavir)	fold change of IC50 against reference virus (indinavir)
HIV-1 isolate 1387 (protease changes: M46F R57G V82A, study 133)	1	–	–
HIV-1 isolate 1170 (protease changes: L10I L24I M46I I54V L63P V82A, study 82)	33.3	3.8	25.8
HIV-1 isolate 586 (protease changes: D30N R57G A71V, study 133)	7	–	–
HIV-1 isolate 1274 (protease changes: R57G I84V, study 133)	5	–	–
HIV-1 isolate 1288 (protease changes: L63P, study 129)	1	1	–
HIV-1 isolate 1059 (protease changes: R57G V82A, study 133)	1	–	–
HIV-1 isolate 183 (protease changes: R57G A71V, study 133)	1	–	–
HIV-1 isolate 547 (protease changes: I13V G16E N37C I62V L63S I64M, study 68)	1	1	–
HIV-1 isolate 223 (protease changes: L10I M46I G73T V77I L90M, study 82)	37	4.4	15.8
HIV-1 isolate 1362 (protease changes: I54V L63P V82A, study 82)	16.8	1.4	20
HIV-1 isolate 1114 (protease changes: R57G, study 133)	1	–	–
HIV-1 isolate 1175 (protease changes: L10I L63T V77I V82F, study 82)	4.1	0.3	2.4
HIV-1 isolate 1585 (protease changes: R8K M46I R57G, study 133)	5	–	–
HIV-1 isolate 596 (protease changes: L10I V11I I13V G16E E35D L63T I64V C67Y V77I V82F, study 129)	4	1	–
HIV-1 isolate 1329 (protease changes: L10F R57G, study 133)	2	–	–
HIV-1 isolate 738 (protease changes: M46I R57G I84V, study 133)	5	–	–
HIV-1 isolate 116 (protease changes: T12S I15V R41K L63S I64V, study 68)	1	–	–
HIV-1 isolate 399 (protease changes: R8K R57G V82I, study 133)	4	–	–
HIV-1 isolate 542 (protease changes: T12P K14R L24I M46I I54V L63A I64V V82A, study 129)	7	1	–
HIV-1 isolate 463 (protease changes: L10I M46I I54V L63Q V82A, study 82)	3.7	0.7	2.5
HIV-1 isolate 1138 (protease changes: L10F R57G I84V, study 133)	3	–	–
HIV-1 isolate 1282 (protease changes: K20I L63P V77I I93L, study 129)	2	1	–
HIV-1 isolate 1035 (protease changes: L10I M46I L63P A71V L90M, study 82)	3.9	1.5	9.6
HIV-1 isolate 1099 (protease changes: L10I E35D R41K I62V L63P A71V I84V L90M I93L, study 137)	7	11	1

Test System	fold change of IC50 against reference virus (nelfinavir)	fold change of IC50 against reference virus (saquinavir)	fold change of IC50 against reference virus (indinavir)
HIV-1 isolate 1637 (protease changes: L10I I15V R41K K43T M46L F53L I54V L63P A71V I72T V82A L90M I93L, study 68)	30	24	–
HIV-1 isolate 51 (protease changes: V32I R57G V82A, study 133)	4	–	–
HIV-1 isolate 1590 (protease changes: M46I R57G, study 133)	1	–	–
HIV-1 isolate 689 (protease changes: M46F R57G, study 133)	1	–	–
HIV-1 isolate 969 (protease changes: L10I K14R I15V N37D F53L A71V G73S V77I L90M, study 137)	26	19	10
HIV-1 isolate 1616 (protease changes: R8Q M46I R57G, study 133)	5	–	–
HIV-1 isolate 685 (protease changes: L10I G48V I54T L63H A71V V77I V82A, study 80)	30	90	86
HIV-1 isolate 3 (protease changes: V32I R57G, study 133)	1	–	–
HIV-1 isolate 211 (protease changes: I15V L24I E35D M36I N37D R41K F53L I54V L63P A71T V82A R87K, study 68)	22	13	–
HIV-1 isolate 1232 (protease changes: M46I R57G L63P I84V, study 133)	30	–	–
HIV-1 isolate 1340 (protease changes: L10I K20R E35D M36I N37D I54V D60E L63P A71V V77G V82A, study 68)	10	9	–
HIV-1 isolate 365 (protease changes: R57G L63P, study 133)	1	–	–
HIV-1 isolate 1192 (protease changes: L10F G48V R57G, study 133)	3	–	–
HIV-1 isolate 1594 (protease changes: L10I I13V I15V I62V A71T I93L, study 89)	1	–	–
HIV-1 isolate 1285 (protease changes: M46L R57G, study 133)	1	–	–
HIV-1 isolate 104 (protease changes: R57G V82F, study 133)	2	–	–
HIV-1 isolate 393 (protease changes: L10I L24I M46L I54V L63P A71V V82A L90M, study 82)	27.4	4.8	–
HIV-1 isolate 591 (protease changes: I15V L24I E35D N37E R41K I54V I62V L63P A71T V82A, study 68)	9	3	–
HIV-1 isolate 129 (protease changes: R8G L10I R41K M46I L63P I72L G73T V77I L90M I93F, study 68)	16	–	–
HIV-1 isolate 356 (protease changes: L10I R41K M46I I64V G73T V77I L90M I93L, study 129)	37	5	–
HIV-1 isolate 424 (protease changes: I64V, study 89)	1	–	–
HIV-1 isolate 113 (protease changes: M36I R57K I62V L63P E65D, study 68)	1	1	–
HIV-1 isolate 391 (protease changes: R57G L90M, study 133)	5	–	–
HIV-1 isolate 1281 (protease changes: G48V R57G, study 133)	3	–	–
